US20060115815A1 (priority 2002, published 2006)

Columns and labels:
[1] = tested on: recombinant HIV-1 strain, protease 10R/46I/82T/84V; assay: Cross-resistance profile assay, mutant 10R/46I/82T/84V
[2] = tested on: recombinant HIV-1 strain, protease 8K/46I/90M; assay: Cross-resistance profile assay, mutant 8K/46I/90M; format: cell-based
[3] = tested on: recombinant HIV-1 strain, protease 30N/50S/82I/88D; assay: Cross-resistance profile assay, mutant 30N/50S/82I/88D; format: cell-based
[4] = tested on: recombinant HIV-1 strain, protease 10F/46I/71V/82T/90M; assay: Cross-resistance profile assay, mutant 10F/46I/71V/82T/90M; format: cell-based
[5] = tested on: recombinant HIV-1 strain, protease 10I/48V/54V/82A; assay: Cross-resistance profile assay, mutant 10I/48V/54V/82A
[6] = tested on: recombinant HIV-1 strain, protease 48V/54V/71V/82S; assay: Cross-resistance profile assay, mutant 48V/54V/71V/82S; format: cell-based
[7] = tested on: recombinant HIV-1 strain, protease 46I/84A; assay: Cross-resistance profile assay, mutant 46I/84A
[8] = tested on: recombinant HIV-1 strain, protease 46I/47V/50V; assay: Cross-resistance profile assay, mutant 46I/47V/50V; format: cell-based
[9] = tested on: recombinant HIV-1 strain, protease 54V/71V/82S; assay: Cross-resistance profile assay, mutant 54V/71V/82S

CCCCOC(=O)C(C)NP(=O)(COc1ccc(CC(NC(=O)OC2COC3OCCC23)C(O)CN(CC(C)C)S(=O)(=O)c2ccc(OC)cc2)cc1)NC(C)C(=O)OCCCC (stereo not drawn) [GS-16503]
Fold Change in EC50 Relative to WT HIV-1 [1]: 1 | Fold Change in EC50 Relative to WT HIV-1 [2]: 1.2 | Fold Change in EC50 Relative to WT HIV-1 [3]: 0.6 | Fold Change in EC50 Relative to WT HIV-1 [4]: 1 | Fold Change in EC50 Relative to WT HIV-1 [5]: 0.4 | Fold Change in EC50 Relative to WT HIV-1 [6]: 0.5 | Fold Change in EC50 Relative to WT HIV-1 [7]: 1 | Fold Change in EC50 Relative to WT HIV-1 [8]: 3.3 | Fold Change in EC50 Relative to WT HIV-1 [9]: 0.9

CCOC(=O)C(C)NP(=O)(COc1ccc(CC(NC(=O)OC2COC3OCCC23)C(O)CN(CC(C)C)S(=O)(=O)c2ccc(OC)cc2)cc1)Oc1ccccc1 (stereo not drawn) [GS-16571]
Fold Change in EC50 Relative to WT HIV-1 [1]: 0.6 | Fold Change in EC50 Relative to WT HIV-1 [2]: 1.8 | Fold Change in EC50 Relative to WT HIV-1 [3]: 0.7 | Fold Change in EC50 Relative to WT HIV-1 [4]: 0.8 | Fold Change in EC50 Relative to WT HIV-1 [5]: 0.3 | Fold Change in EC50 Relative to WT HIV-1 [6]: 0.2 | Fold Change in EC50 Relative to WT HIV-1 [7]: 1 | Fold Change in EC50 Relative to WT HIV-1 [8]: 0.8 | Fold Change in EC50 Relative to WT HIV-1 [9]: 0.6
